## Primary screen of a compound library

Mtb glucose medium: 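Growth of Mycobacterium tuberculosis over 3 days (7H9 medium with glucose and tyloxapol); the read-out is not stated. Compounds at 50 µM. The record gives no direction; compounds that gave an IC50 in retests scored well above the rest, so higher reads as more growth inhibition. About 69,000 compounds were tested under these conditions; 1.1% (about 760) showed 50% or more at least once.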
Mtb cholesterol medium: 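Growth of Mycobacterium tuberculosis over 4 days (cholesterol / DPPC medium with tyloxapol); the read-out is not stated. Tested at 50 µM. Direction is inferred from retests: higher values go with more growth inhibition. Size under these conditions: about 69,000 compounds, about 370 of them at 50% or above in at least one test.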

The filed quantity is “Percent Effect” (%).
The controls that fix the scale are not given in the record; negative values are as filed.
This is part of a subset picked to be rich in strong results.
Two or more numbers in one place are separate tests of the same structure; such repeats can differ widely.
A dash means the value is not listed here; it may have been measured.

SMILES	Mtb glucose medium	Mtb cholesterol medium
Cc1ccc(NC2CCN(C(=O)CCc3ccco3)CC2)nn1	4.112%	-
Cc1cc(NCCO)nc(N2CCC(Cc3ccccc3)CC2)c1C#N.O=C(O)C(=O)O	7.291%	-
Cc1noc(C)c1C(=O)N1CCCC(c2cc(C(F)(F)F)[nH]n2)C1 (stereo not drawn)	-8.819% and -28.3%	-
CCCC(=O)N(CCCN1CCOCC1)c1nc2c(C)c(C)ccc2s1.Cl	31.05% and 39.74%	22.41%
CCn1cc(CN(C)S(=O)(=O)c2ccc(Cl)cc2)cn1	19.45%	-
CC(=O)Nc1nc(COc2nc(C)no2)cs1	-18.44%	-13.13%
Brc1cnc(NCc2ccccc2N2CCOCC2)nc1	-	26.52%
COCCNc1nnc(-c2ccccn2)s1	12.63%	-8.82%
CC(C)(C)OC(=O)N1CCC(NC2CC2)CC1	-	5.466%
Cc1n[nH]c(C2CN(C(=O)c3cc(Cl)c[nH]3)CCO2)n1 (stereo not drawn)	3.731% and -3.791%	11.84%
CCOc1ccc(N2CCCN=C2NC(=O)c2cccc(OC)c2)cc1	-5.527%	-33.84%
NC(=O)C1CCN(C(=O)NCc2ccc3c(c2)OCCO3)CC1	-0.6% and -2.252%	-12.44%
OC1CCN([C@@H]2CCN(c3nc(-c4ccccc4)no3)C[C@H]2O)CC1	-18.46%	-
Cl.NC1CCc2nc(-c3cccnc3)nc(Nc3ccc(F)cc3)c2C1 (stereo not drawn)	77.6%	55.67% and 72.2%
COc1cc(-c2cccc3c2OC(CN)C3)ccc1O (stereo not drawn)	17.29% and 18.1%	-
COc1ccccc1N1CCC(CNCc2cccc(O)c2)C1 (stereo not drawn)	35.5%	-
CC(C)Cc1noc(-c2ccc(NCc3noc(C(C)C)n3)nc2)n1	9.258% and 12.78%	6.974%
CN(Cc1ccc(Cl)s1)C(=O)Cn1nc(-c2ccc(F)cc2)oc1=O	-	93.38%
COc1cccc(Cn2[nH]c(C)c3c(NC(=O)C(C)OC)nnc2-3)c1 (stereo not drawn)	-8.847% and 0.9445%	-
CN(Cc1ccsc1)C(=O)CNC(=O)N1CCc2ccccc2C1	-28.39%	-3.374%
CCNC(=O)NC(=O)CNC(C)(C)c1ccc2c(c1)OCCO2	29.31% and 53.23%	29.06%
O=C(Nc1cc[nH]n1)c1ccc(COCC(F)(F)F)cc1	42.66%	-3.729%
COc1ccc(CN2CCCC(N3CCCC3)C2)cc1Cn1cncn1 (stereo not drawn)	-15.01%	-
Cc1ccc(S(=O)(=O)CCC(=O)NCc2nnc3n2CCC3)cc1	-21.98%	-5.799%
COC(=O)[C@H](C)NC(=O)c1cc(-c2cccc(Cl)c2)no1	58.93% and 52.36%	53.24%
O=C(C1CC1)N1CCCC1c1nnc2n1CCCCC2 (stereo not drawn)	-	-25.48%
Cc1noc(C)c1C(=O)N1CCCC(c2nccn2Cc2cscn2)C1 (stereo not drawn)	1.123%	-
COc1cccc(S(=O)(=O)CCN2CCCC2c2ccc[nH]2)c1 (stereo not drawn)	-	15.76%
COc1ccc(-c2cc(C[C@@H]3C[C@H](N(C)C)C3(C)C)no2)cc1	11.48% and -3.36%	-
CC(C)COc1cncc(NC(CO)c2ccco2)n1 (stereo not drawn)	-3.781%	-
COCCn1ccc2c(NC(=O)c3n[nH]c4c3CCCC4)cccc21	46.96%	-
CC(C)C(=O)Nc1cccc(OCC(=O)NCc2ccccc2F)c1	18.34%	-
OC1CCN(Cc2cc3c(cc2Br)OCCO3)CC1	-4.756% and -10.22%	-
COc1ccc(C(O)CNC(=O)NCc2nc(C)cs2)cc1 (stereo not drawn)	-17.59% and -5.876%	-
O=C(O)CC(O)(CC(=O)O)C(=O)O.[H][C@@]12CC[C@@](O)(c3ccc(C)cn3)[C@]1([H])CN(Cc1cccc(Cl)c1Cl)C2	50.17%	-
COc1ccc(C(=O)NCc2ccco2)nn1	53.95%	-
CCc1ncc(-c2cn(CCSc3ncn[nH]3)nn2)cn1	71.63%	-
COc1ncc(C)cc1NC(=O)COCC(F)(F)F	-10.79% and 0.2054%	-
CC(=O)c1ccc(NC(=O)N[C@H](C(=O)O)C(C)C)cc1	-14.65%	20.34%
Cc1nc(CSCCC(=O)Nc2cccc(N3CCNC3=O)c2)cs1	-0.6651% and 71.79%	-
Cc1cccc(NC2CCN(C(=O)Nc3ccncc3)CC2)n1	-3.858% and -2.954%	-
O=C(NCCc1ccco1)Nc1cc(C(F)(F)F)c[nH]c1=O	12.16%	16.64%
CCOc1cccc2c1OCC(C(=O)NS(=O)(=O)c1c(C)noc1C)=C2	58.03%	-
CCc1ccccc1NC(=O)NCc1nnc(SC)n1C	-	4.11% and 72.7%
Cc1ccc(CN(C)C(=O)Cn2nc(-c3ccc(F)cc3)oc2=O)cc1	-	-24.99%
CC(C)C(=O)NCc1ccnc(Oc2ccc(F)cc2)c1	25.02% and 6.553%	-
[H][C@@]12CCN(C(=O)c3cnoc3C)C[C@]1([H])[C@@H](CN1CCCC1)OC2	54.1%	-
CCc1ccc(C(=O)NCCCC2(C3OCCO3)CCOCC2)cc1	4.086% and 29.47%	-
CN1N=C(C(=O)N2CCCC(CCc3ccccc3F)C2)CCC1=O (stereo not drawn)	11.47%	-
CCN1C(=O)C2(CCOCC2)c2cc(NC(=O)c3cc(C)n[nH]3)ccc21	-9.854% and -0.8897%	-
CCOC(=O)CNC(=O)C1CN(C(=O)c2cnccn2)C1	1.837% and 27.12%	-
COc1ccccc1OC1CN(C(=O)c2c(C)nc3ccc(C)cn23)C1	57.77%	-
Cc1nc(C)c(C(=O)N2CCc3c(C)cccc32)o1	-	12.81%
COc1c(F)cc(NCC(=O)NC(C)(C#N)C2CC2)cc1F (stereo not drawn)	18.62%	16.31%
CN(CCc1cn[nH]c1)Cc1nc(Cc2cccc(F)c2)no1	-	-7.694%
O=C(c1csc2nc(-c3ccc(Cl)cc3)cn12)N1CCCC(CO)C1 (stereo not drawn)	26.96%	2.085%
COc1ccc(COCC(O)CNC(=O)c2cc(C)no2)cc1 (stereo not drawn)	0.1555%	-
Cc1n[nH]cc1C(=O)N1CCCC(c2cccc(-n3ccnc3)n2)C1 (stereo not drawn)	32.41%	-
CN1CCCN(C(=O)c2cnsn2)c2cc(Cl)ccc21	12.14%	-
CCCc1nc(N2Cc3cnn(Cc4ccc(F)cc4)c3C2)no1	-	-9.229%
O=C(NCC1CCOC1)N1CCN(Cc2ccc3c(c2)OCO3)CC1 (stereo not drawn)	29.3%	14.11%
CCc1nc(CN(C)Cc2ncc(-c3cccs3)o2)cs1	29.08% and 54.63%	-
Cc1ccc(CN(CCCN2CCOCC2)Cc2cncn2C)o1.O=C(O)CC(O)(CC(=O)O)C(=O)O	23.3%	-

Repeated from the top, 4 entries:

SMILES,Mtb glucose medium,Mtb cholesterol medium
Cc1ccc(NC2CCN(C(=O)CCc3ccco3)CC2)nn1,4.112%,-
Cc1cc(NCCO)nc(N2CCC(Cc3ccccc3)CC2)c1C#N.O=C(O)C(=O)O,7.291%,-
Cc1noc(C)c1C(=O)N1CCCC(c2cc(C(F)(F)F)[nH]n2)C1 (stereo not drawn),-8.819% and -28.3%,-
CCCC(=O)N(CCCN1CCOCC1)c1nc2c(C)c(C)ccc2s1.Cl,31.05% and 39.74%,22.41%

Measurements from “University of Dundee, Small-Polar-MMV Screening Library” (2021), ChEMBL document CHEMBL3988442.